Pooled drug test results. Numbers come from NIAID ChemDB, via PubChem.

All rows: tests in culture; organism: Hepatitis C virus; endpoint: EC50

ECn: concentration that inhibits the pathogen or its effect by n%. An empty or dashed field is not shown. a–b is a range or a potency band. Neighbouring rows are from separate reports.

| SMILES | strain or isolate | cells | result |
|---|---|---|---|
| CCOc1nc(N)nc2ncc(-c3ccc(N)cc3)nc12 | - | Huh7 | 1–10 µM |
| Cn1cccc1-c1nc2cc(C(=O)NC3(C(=O)Nc4ccc(/C=C/C(=O)O)cc4)CCCC3)ccc2n1C1CCCCC1 | - | Huh7 | ≤5 µM |
| CN(C)[C@H](C(=O)N1CSC[C@H]1c1ncc(-c2ccc(-c3ccc(-c4cnc([C@@H]5CSCN5C(=O)[C@@H](c5ccccc5)N(C)C)[nH]4)cc3)cc2)[nH]1)c1ccccc1 | 1b | - | 0.001–0.099 µM |
| Nc1nc(N2CCOCC2)c2nc(-c3ccc4c(c3)CC(=O)N4)cnc2n1 | - | Huh7 | 1–10 µM |
| CC(=O)N[C@H](C(=O)N1CCC[C@H]1c1ncc(-c2ccc(-c3ccc(-c4cnc([C@@H]5CCCN5C(=O)[C@H](NC(C)=O)c5ccccc5)[nH]4)cc3)nc2)[nH]1)c1ccccc1 | 1b | - | 0.00001–0.000999 µM |
| CCCCCCCC(F)(F)c1ccc(N(C(C)=O)c2nc(-c3cccnc3)cs2)cc1 | - | - | <1 µM |
| C[C@@H]1CCCC[C@H]1n1c(-c2ccccn2)nc2cc(C(=O)NC3(C(=O)Nc4ccc(/C=C/C(=O)O)cc4)CCCC3)ccc21 | - | Huh7 | ≤5 µM |
| Nc1nc(N2CCOCC2)c2nc(-c3c(Cl)cccc3Cl)cnc2n1 | - | Huh7 | 1–10 µM |
| CCCCCOc1ccc(N(C(=O)C(=O)OC)c2nc(-c3ccc(F)cc3F)cs2)cc1C(F)(F)F | - | - | <1 µM |
| COC(=O)N[C@@H](C(=O)N1CCC[C@H]1c1ncc(-c2ccc(-c3ccc(-c4cnc([C@@H]5CCCN5C(=O)[C@H]5CCCO5)[nH]4)cn3)cc2)[nH]1)c1ccccc1 | 1b | - | 0.00001–0.000999 µM |
| C[C@@H](NC(=O)c1ccc2c(c1)nc(-c1ccoc1)n2C1CCCCC1)C(=O)Nc1ccc(/C=C/C(=O)O)cc1 | - | Huh7 | 5–50 µM |
| Nc1nc(N2CCOCC2)c2nc(-c3ccsc3)cnc2n1 | - | Huh7 | 1–10 µM |
| CCCCCN(C)c1ccc(N(C(N)=O)c2nc(-c3ccc(O)c(C(N)=O)c3)cs2)cc1C(F)(F)F | - | - | <1 µM |
| CC(NC(=O)c1ccc2c(c1)nc(-c1ccoc1)n2C1CCCCC1)C(=O)Nc1ccc(/C=C/C(=O)O)cc1 | - | Huh7 | 5–50 µM |
| CCCCCCCOc1ccc(N(C(N)=O)c2nc(-c3ccc(C(=O)N(C)C)nc3)cs2)cc1 | - | - | >10 µM |
| COc1ccc(-c2cnc3nc(N)nc(N4CCOCC4)c3n2)cn1 | - | Huh7 | 1–10 µM |
| O=C(O)/C=C/c1ccc(NC(=O)C2(NC(=O)c3ccc4c(c3)nc(-c3ccco3)n4C3C[C@H]4CC[C@@H]3C4)CCCC2)cc1 | - | Huh7 | ≤5 µM |
| CN(C)[C@@H](C(=O)N1CCC[C@H]1c1ncc(-c2ccc(-c3ccc(-c4cnc([C@@H]5CCCN5C(=O)[C@@H](c5ccccc5)N(C)C)[nH]4)cc3C(F)(F)F)cc2)[nH]1)c1ccccc1 | 1b | - | 0.00001–0.000999 µM |
| O=C(O)/C=C/c1ccc(NC(=O)C2(NC(=O)c3ccc4c(c3)nc(-c3ccco3)n4C3CCCCC3)CCCC2)cc1 | - | Huh7 | ≤5 µM |
| COC(=O)N[C@@H](C(=O)N1CCC[C@@H]1c1ncc(-c2ccc(-c3cnc(-c4cnc([C@H]5CCCN5C(=O)[C@H](NC(=O)OC)c5ccccc5)[nH]4)cn3)cc2)[nH]1)c1ccccc1 | 1b | - | 0.00001–0.000999 µM |
| Nc1nc(N2CCOCC2)c2nc(-c3ccccc3C(F)(F)F)cnc2n1 | - | Huh7 | 0.3–1 µM |
| CCCCCOc1ccc(N(C(N)=O)c2nc(-c3ccc(C)nc3)cs2)cc1F | - | - | <1 µM |
| Nc1nc(N2CCOCC2)c2nc(-c3cc4ccccc4o3)cnc2n1 | - | Huh7 | 0.3–1 µM |
| CN(C)[C@@H](C(=O)N1CCC[C@H]1c1ncc(-c2ccc(-c3ccc(-c4cnc([C@@H]5CCCN5C(=O)[C@@H](c5ccccc5)N(C)C)[nH]4)cc3)cc2)[nH]1)c1ccccc1 | 1b | - | 0.00001–0.000999 µM |

A second listing of 2 rows from above:

SMILES	strain or isolate	cells	result
COC(=O)N[C@@H](C(=O)N1CCC[C@@H]1c1ncc(-c2ccc(-c3cnc(-c4cnc([C@H]5CCCN5C(=O)[C@H](NC(=O)OC)c5ccccc5)[nH]4)cn3)cc2)[nH]1)c1ccccc1	1b	-	0.00001–0.000999 µM
CCCCCCCOc1ccc(N(C(N)=O)c2nc(-c3ccc(C(=O)N(C)C)nc3)cs2)cc1	-	-	>10 µM